Data as given in PubChem BioAssay AID504761 (Drosophila RNAi Screening Center, 2011).

Assay: 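Fly genes whose silencing reduces dengue virus type 2 infection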 (primary screen)
Cell system: D.Mel-2 cells from Drosophila
Reagent: long dsRNA against Drosophila genes
Conditions: infection with dengue virus type 2; dose and infection time not stated
Measured: 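Per well on two replicate plates, imaging gave the percent of cells positive for viral envelope protein, ranked by infection, and a nuclear count of cells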
Scale: infection score: higher = more virus-infected cells
Active means: 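Low infection ranks in the two replicates (chance level up to 0.065) followed by a retest with a 1.5-fold or larger significant decrease, p below 0.05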
Meaning of the calls: active = confirmed: knock-down lowers infection; inactive = not picked or not confirmed
In all, the deposit lists about 22,000 reagents; shown is an unselected part of those that have a named target and a result. Over the whole deposit, 116 (0.52%) got an active call. 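Calls depend on retest data that are not deposited; infection was ranked per plate without normalising between plates; the unit of the infection score is not given.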 The numbers tell different reagents against one gene apart. Names joined by + are all predicted targets of the reagent. Further read-outs or replicates are left out here. No sequences are given here. Not stated in the record: the amount of reagent, the time to read-out.

The opening 2 entries, ahead of the listing:
gene	reagent no.	infection score, replicate 1	activity call
CG17177 (GeneID 39601)	1	0.76	inactive
CG30357 (GeneID 246563)	1	1.36	inactive

Results, from the first entry:
gene	reagent no.	infection score, replicate 1	activity call
CG17177 (GeneID 39601)	1	0.76	inactive
CG30357 (GeneID 246563)	1	1.36	inactive
CG5515 (GeneID 42875)	1	10.6	inactive
Jheh2 (GeneID 37181)	1	2.78	inactive
Jheh2 (GeneID 37181)	2	14.7	inactive
TwdlG (GeneID 40535)	1	2.75	inactive
TwdlG (GeneID 40535)	2	10.6	inactive
CG4730 (GeneID 43099)	1	8.85	inactive
CG4730 (GeneID 43099)	2	4.85	inactive
CG5359 + Spn85F	1	15.8	inactive
CG32457 (GeneID 318040)	1	21.2	inactive
eyg (GeneID 39419)	1	0.92	inactive
eyg (GeneID 39419)	2	6.35	inactive
tbrd-1 (GeneID 42823)	1	1.05	inactive
sPLA2 (GeneID 35665)	1	3.42	inactive
sPLA2 (GeneID 35665)	2	19	inactive
CG5039 (GeneID 43100)	1	16.2	inactive
CG5039 (GeneID 43100)	2	35.8	inactive
Rae1 (GeneID 37467)	1	10.3	inactive
lncRNA:Hsromega (GeneID 3772547)	1	2.22	inactive
lncRNA:Hsromega (GeneID 3772547)	2	9.2	inactive
Membrin (GeneID 38614)	1	6.76	inactive
CG13551 (GeneID 50133)	1	2.13	inactive
